From PMC4295349, “Synthetic Antimicrobial Peptides Exhibit Two Different Binding Mechanisms to the Lipopolysaccharides Isolated from Pseudomonas aeruginosa and Klebsiella pneumoniae” (International Journal of Medicinal Chemistry, 2014)
Some compounds share one wording; it may come from a single statement. Where a SMILES comes first, the peptide text is derived from it. [ ]: non-standard residue; d: D form. ξ: configuration not given here. Oic = O=C(O)[C@@H]1C[C@@H]2CCCC[C@@H]2N1; Oic(3aξ,7aξ) = O=C(O)[C@@H]1CC2CCCCC2N1; Tic = O=C(O)[C@@H]1Cc2ccccc2CN1; βAla = NCCC(=O)O

What was measured:
[1] = system: LPS isolated from P. aeruginosa; assay: Far-UV circular dichroism of AMP with LPS SUVs; design: species or system Pseudomonas aeruginosa; conditions: 40 mM sodium phosphate pH 6.8, 350 μL LPS stock + 50 μL peptide stock, 298 K, 260-195 nm, LPS background subtracted
[2] = system: LPS isolated from K. pneumoniae; assay: Far-UV circular dichroism of AMP with LPS SUVs; design: species or system Klebsiella pneumoniae; conditions: 40 mM sodium phosphate pH 6.8, 350 μL LPS stock + 50 μL peptide stock, 298 K, 260-195 nm, LPS background subtracted

CC(C)C[C@H](NC(=O)[C@@H](N)CCCCN)C(=O)N1Cc2ccccc2C[C@H]1C(=O)N1[C@H](C(=O)N[C@@H](CCCCN)C(=O)N2Cc3ccccc3C[C@H]2C(=O)N2[C@H](C(=O)N[C@@H](Cc3ccccc3)C(=O)N3Cc4ccccc4C[C@H]3C(=O)N3[C@H](C(=O)N[C@@H](CCCCN)C(=O)N4Cc5ccccc5C[C@H]4C(=O)N4[C@H](C(=O)N[C@@H](Cc5ccccc5)C(=O)N5Cc6ccccc6C[C@H]5C(=O)N5[C@H](C(=O)N[C@@H](CCCCN)C(=O)N6Cc7ccccc7C[C@H]6C(=O)N6[C@H](C(=O)N[C@@H](CCCCN)C(=O)N[C@@H](CCCNC(=N)N)C(N)=O)C[C@@H]7CCCC[C@@H]76)C[C@@H]6CCCC[C@@H]65)C[C@@H]5CCCC[C@@H]54)C[C@@H]4CCCC[C@@H]43)C[C@@H]3CCCC[C@@H]32)C[C@@H]2CCCC[C@@H]21 [AMP 22] (H-KL[Tic][Oic]K[Tic][Oic]F[Tic][Oic]K[Tic][Oic]F[Tic][Oic]K[Tic][Oic]KR-NH2) was tested, and the “type of CD spectrum” value [1] was “helical-like features” and the “type of CD spectrum” value [2] was “helical-like features”.
CC(=O)N[C@@H](CCCCN)C(=O)N[C@@H](CC(C)C)C(=O)N1Cc2ccccc2C[C@H]1C(=O)N1[C@H](C(=O)N[C@@H](CCCCN)C(=O)N2Cc3ccccc3C[C@H]2C(=O)N2[C@H](C(=O)N[C@@H](Cc3ccccc3)C(=O)N3Cc4ccccc4C[C@H]3C(=O)N3[C@H](C(=O)N[C@@H](CCCCN)C(=O)N4Cc5ccccc5C[C@H]4C(=O)N4[C@H](C(=O)N[C@@H](Cc5ccccc5)C(=O)N5Cc6ccccc6C[C@H]5C(=O)N5[C@H](C(=O)N[C@@H](CCCCN)C(=O)N6Cc7ccccc7C[C@H]6C(=O)N6[C@H](C(=O)N[C@@H](CCCCN)C(=O)N[C@@H](CCCCN)C(=O)N[C@@H](CCCCN)C(=O)N[C@@H](CCCCN)C(N)=O)C[C@@H]7CCCC[C@@H]76)C[C@@H]6CCCC[C@@H]65)C[C@@H]5CCCC[C@@H]54)C[C@@H]4CCCC[C@@H]43)C[C@@H]3CCCC[C@@H]32)C[C@@H]2CCCC[C@@H]21 [AMP 70] (Ac-KL[Tic][Oic]K[Tic][Oic]F[Tic][Oic]K[Tic][Oic]F[Tic][Oic]K[Tic][Oic]KKKK-NH2) was tested, and the “type of CD spectrum” value [1] was “helical-like features” and the “type of CD spectrum” value [2] was “helical-like features”.
With CC(C)C[C@H](NC(=O)[C@@H](N)CCCCN)C(=O)N1Cc2ccccc2C[C@H]1C(=O)N1[C@H](C(=O)N[C@@H](CCCCN)C(=O)N2Cc3ccccc3C[C@H]2C(=O)N2[C@H](C(=O)NCC(=O)N[C@@H](Cc3ccccc3)C(=O)N3Cc4ccccc4C[C@H]3C(=O)N3[C@H](C(=O)N[C@@H](CCCCN)C(=O)N4Cc5ccccc5C[C@H]4C(=O)N4[C@H](C(=O)NCC(=O)N[C@@H](Cc5ccccc5)C(=O)N5Cc6ccccc6C[C@H]5C(=O)N5[C@H](C(=O)N[C@@H](CCCCN)C(=O)N6Cc7ccccc7C[C@H]6C(=O)N6[C@H](C(=O)N[C@@H](CCCCN)C(=O)N[C@@H](CCCCN)C(=O)N[C@@H](CCCCN)C(=O)N[C@@H](CCCCN)C(N)=O)C[C@@H]7CCCC[C@@H]76)C[C@@H]6CCCC[C@@H]65)C[C@@H]5CCCC[C@@H]54)C[C@@H]4CCCC[C@@H]43)C[C@@H]3CCCC[C@@H]32)C[C@@H]2CCCC[C@@H]21 [AMP 75] (H-KL[Tic][Oic]K[Tic][Oic]GF[Tic][Oic]K[Tic][Oic]GF[Tic][Oic]K[Tic][Oic]KKKK-NH2) the “type of CD spectrum” value [1] was “helical-like features” and the “type of CD spectrum” value [2] was “helical-like features”.
In the case of CC(C)C[C@H](NC(=O)[C@@H](N)CCCCN)C(=O)N1Cc2ccccc2C[C@H]1C(=O)N1C2CCCCC2C[C@H]1C(=O)NCC(=O)N[C@@H](CCCCN)C(=O)N1Cc2ccccc2C[C@H]1C(=O)N1C2CCCCC2C[C@H]1C(=O)NCC(=O)N[C@@H](Cc1ccccc1)C(=O)N1Cc2ccccc2C[C@H]1C(=O)N1C2CCCCC2C[C@H]1C(=O)NCC(=O)N[C@@H](CCCCN)C(=O)N1Cc2ccccc2C[C@H]1C(=O)N1C2CCCCC2C[C@H]1C(=O)NCC(=O)N[C@@H](Cc1ccccc1)C(=O)N1Cc2ccccc2C[C@H]1C(=O)N1C2CCCCC2C[C@H]1C(=O)NCC(=O)N[C@@H](CCCCN)C(=O)N1Cc2ccccc2C[C@H]1C(=O)N1C2CCCCC2C[C@H]1C(=O)N[C@@H](CCCCN)C(=O)N[C@@H](CCCCN)C(=O)N[C@@H](CCCCN)C(=O)N[C@@H](CCCCN)C(N)=O (stereo partly drawn) [AMP 76] (H-KL[Tic][Oic(3aξ,7aξ)]GK[Tic][Oic(3aξ,7aξ)]GF[Tic][Oic(3aξ,7aξ)]GK[Tic][Oic(3aξ,7aξ)]GF[Tic][Oic(3aξ,7aξ)]GK[Tic][Oic(3aξ,7aξ)]KKKK-NH2), the “type of CD spectrum” value [1] is reported as “only negative absorptions” and the “type of CD spectrum” value [2] is reported as “only negative absorptions”.
For CC(C)C[C@H](NC(=O)[C@@H](N)CCCCN)C(=O)N1Cc2ccccc2C[C@H]1C(=O)N1[C@H](C(=O)N[C@@H](CCCCN)C(=O)N2Cc3ccccc3C[C@H]2C(=O)N2[C@H](C(=O)N[C@@H](Cc3ccccc3)C(=O)NCC(=O)N3Cc4ccccc4C[C@H]3C(=O)N3[C@H](C(=O)N[C@@H](CCCCN)C(=O)N4Cc5ccccc5C[C@H]4C(=O)N4[C@H](C(=O)N[C@@H](Cc5ccccc5)C(=O)NCC(=O)N5Cc6ccccc6C[C@H]5C(=O)N5[C@H](C(=O)N[C@@H](CCCCN)C(=O)N6Cc7ccccc7C[C@H]6C(=O)N6[C@H](C(=O)N[C@@H](CCCCN)C(=O)N[C@@H](CCCCN)C(=O)N[C@@H](CCCCN)C(=O)N[C@@H](CCCCN)C(N)=O)C[C@@H]7CCCC[C@@H]76)C[C@@H]6CCCC[C@@H]65)C[C@@H]5CCCC[C@@H]54)C[C@@H]4CCCC[C@@H]43)C[C@@H]3CCCC[C@@H]32)C[C@@H]2CCCC[C@@H]21 [AMP 77] (H-KL[Tic][Oic]K[Tic][Oic]FG[Tic][Oic]K[Tic][Oic]FG[Tic][Oic]K[Tic][Oic]KKKK-NH2), the “type of CD spectrum” value [1] was “helical-like features” and the “type of CD spectrum” value [2] was “helical-like features”.
For CC(C)C[C@H](NC(=O)[C@@H](N)CCCCN)C(=O)N1Cc2ccccc2C[C@H]1C(=O)N1C2CCCCC2C[C@H]1C(=O)N[C@@H](CCCCN)C(=O)NCC(=O)N1Cc2ccccc2C[C@H]1C(=O)N1C2CCCCC2C[C@H]1C(=O)N[C@@H](Cc1ccccc1)C(=O)N1Cc2ccccc2C[C@H]1C(=O)N1C2CCCCC2C[C@H]1C(=O)N[C@@H](CCCCN)C(=O)NCC(=O)N1Cc2ccccc2C[C@H]1C(=O)N1C2CCCCC2C[C@H]1C(=O)N[C@@H](Cc1ccccc1)C(=O)N1Cc2ccccc2C[C@H]1C(=O)N1C2CCCCC2C[C@H]1C(=O)N[C@@H](CCCCN)C(=O)NCC(=O)N1Cc2ccccc2C[C@H]1C(=O)N1C2CCCCC2C[C@H]1C(=O)N[C@@H](CCCCN)C(=O)N[C@@H](CCCCN)C(=O)N[C@@H](CCCCN)C(=O)N[C@@H](CCCCN)C(N)=O (stereo partly drawn) [AMP 78] (H-KL[Tic][Oic(3aξ,7aξ)]KG[Tic][Oic(3aξ,7aξ)]F[Tic][Oic(3aξ,7aξ)]KG[Tic][Oic(3aξ,7aξ)]F[Tic][Oic(3aξ,7aξ)]KG[Tic][Oic(3aξ,7aξ)]KKKK-NH2), the “type of CD spectrum” value [1] was “only negative absorptions” and the “type of CD spectrum” value [2] was “only negative absorptions”.
For CC(C)C[C@H](NC(=O)[C@@H](N)CCCCN)C(=O)N1Cc2ccccc2C[C@H]1C(=O)N1C2CCCCC2C[C@H]1C(=O)N[C@@H](CCCCN)C(=O)NCC(=O)N1Cc2ccccc2C[C@H]1C(=O)N1C2CCCCC2C[C@H]1C(=O)N[C@@H](Cc1ccccc1)C(=O)NCC(=O)N1Cc2ccccc2C[C@H]1C(=O)N1C2CCCCC2C[C@H]1C(=O)N[C@@H](CCCCN)C(=O)NCC(=O)N1Cc2ccccc2C[C@H]1C(=O)N1C2CCCCC2C[C@H]1C(=O)N[C@@H](Cc1ccccc1)C(=O)NCC(=O)N1Cc2ccccc2C[C@H]1C(=O)N1C2CCCCC2C[C@H]1C(=O)N[C@@H](CCCCN)C(=O)NCC(=O)N1Cc2ccccc2C[C@H]1C(=O)N1C2CCCCC2C[C@H]1C(=O)N[C@@H](CCCCN)C(=O)N[C@@H](CCCCN)C(=O)N[C@@H](CCCCN)C(=O)N[C@@H](CCCCN)C(N)=O (stereo partly drawn) [AMP 79] (H-KL[Tic][Oic(3aξ,7aξ)]KG[Tic][Oic(3aξ,7aξ)]FG[Tic][Oic(3aξ,7aξ)]KG[Tic][Oic(3aξ,7aξ)]FG[Tic][Oic(3aξ,7aξ)]KG[Tic][Oic(3aξ,7aξ)]KKKK-NH2), the “type of CD spectrum” value [1] was “only negative absorptions” and the “type of CD spectrum” value [2] was “only negative absorptions”.
With CC(C)C[C@H](NC(=O)[C@@H](N)CCCCN)C(=O)N1Cc2ccccc2C[C@H]1C(=O)N1C2CCCCC2C[C@H]1C(=O)NCC(=O)N[C@@H](CCCCN)C(=O)N1Cc2ccccc2C[C@H]1C(=O)N1C2CCCCC2C[C@H]1C(=O)NCCC(=O)N[C@@H](Cc1ccccc1)C(=O)N1Cc2ccccc2C[C@H]1C(=O)N1C2CCCCC2C[C@H]1C(=O)NCC(=O)N[C@@H](CCCCN)C(=O)N1Cc2ccccc2C[C@H]1C(=O)N1C2CCCCC2C[C@H]1C(=O)NCCC(=O)N[C@@H](Cc1ccccc1)C(=O)N1Cc2ccccc2C[C@H]1C(=O)N1C2CCCCC2C[C@H]1C(=O)NCC(=O)N[C@@H](CCCCN)C(=O)N1Cc2ccccc2C[C@H]1C(=O)N1C2CCCCC2C[C@H]1C(=O)N[C@@H](CCCCN)C(=O)N[C@@H](CCCCN)C(=O)N[C@@H](CCCCN)C(=O)N[C@@H](CCCCN)C(N)=O (stereo partly drawn) [AMP 80] (H-KL[Tic][Oic(3aξ,7aξ)]GK[Tic][Oic(3aξ,7aξ)][βAla]F[Tic][Oic(3aξ,7aξ)]GK[Tic][Oic(3aξ,7aξ)][βAla]F[Tic][Oic(3aξ,7aξ)]GK[Tic][Oic(3aξ,7aξ)]KKKK-NH2) the “type of CD spectrum” value [1] was “only negative absorptions” and the “type of CD spectrum” value [2] was “only negative absorptions”.
In the case of “H2N-KL-Tic-Oic-GK-Tic-Oic-F-Tic-Oic-GK-Tic-Oic-F-Tic-Oic-GK-Tic-Oic-KKKK-CONH2 [AMP 74, synthetic antimicrobial peptide containing six Tic-Oic dipeptide units, residue A Gly]”, the “type of CD spectrum” value [1] is reported as “helical-like features” and the “type of CD spectrum” value [2] is reported as “falls into the latter type”.
